According to patent publication US20050169964A1, “Antibiotic calcium phosphate coating” (Howmedica Osteonics Corp., priority 2001, published 2005):

Test: release of OP-1 from PA coated disks into PBS

B1: OP-1® Osteogenic graft material: Osteogenic protein-1, a 36 kD homodimer protein in the TGI-β super-family; a bone morphogenic protein (protein, UniProt P18075 293-431, looked up)
Bone morphogenetic protein 7: STGSKQRSQNRSKTPKNQEALRMANVAENSSSDQRQACKKHELYVSFRDLGWQDWIIAPEGYAAYYCEGECAFPLNSYMNATNHAIVQTLVHFINPETVPKPCCAPTQLNAISVLYFDDSSNVILKKYRNMVVRACGCH
modifications: graft material
notes: Osteogenic protein-1, a 36 kD homodimer protein in the TGI-β super-family; a bone morphogenic protein
mean bound at time zero (PA coated disks, after 3 hours incubation and washes): 1.685 nmol/disk
mean release at 1 hour (PBS, 37° C.): 1.328 nmol/disk
mean release at 1 hour as percent of the value at time zero (PBS, 37° C.): about 79%
maximum cumulative release (after 3 days incubation at 37° C., FIG. 6): about 92%
percent release from PA coated coupons within the first hour (incubation at 37° C. in PBS, two experiments, FIG. 5): 75-80%
